Reference: patent US20240083885A1, “COMPOSITIONS AND METHODS FOR INHIBITING M PRO PROTEASE ACTIVITY AND FOR PREVENTING AND TREATING SARS-COV-2 INFECTION” (priority 2020, published 2024)
Where two headings read alike, the source gives them in different places.

Columns and labels:
SARS-CoV-2 M^pro = SARS-CoV-2 M^pro (Severe acute respiratory syndrome coronavirus 2 (2019-nCoV) (SARS-CoV-2), UniProt P0DTD1); experiment: FRET-based enzymatic assay against SARS-CoV-2 M^pro; type: biochemical; conditions: for enzymatic inhibition of SARS-CoV-2 M^pro (in words): compared to ML188 (1) or compound 13; for IC50: read-out: IC50 against SARS-CoV-2 M^pro, FRET-based enzymatic assay
Vero E6 cells = experiment: Cytotoxicity in Vero E6 cells (neutral red uptake)
[1] = read-out: CC50 in Vero E6 cells, Vero E6 cells

SMILES | enzymatic inhibition of SARS-CoV-2 M^pro (in words) (SARS-CoV-2 M^pro) | IC50 (SARS-CoV-2 M^pro) [µM] | CC50 (Vero E6 cells) [µM] | CC50 (Vero E6 cells; [1]) [µM] | fold increase in M^pro inhibition (SARS-CoV-2 M^pro; compared to compound 13) [fold] | cellular cytotoxicity in Vero E6 cells (in words) (Vero E6 cells)
CC(C)(C)c1ccc(N(C(=O)c2ccco2)C(C(=O)NC2CCCC2)c2cccnc2)cc1 (stereo not shown) [Jun8-88-2] | improved enzymatic inhibition | < 5 | > 100 | – | – | –
CC(C)(C)CC(C)(C)NC(=O)C(c1cccnc1)N(C(=O)c1ccco1)c1ccc(-c2ccccc2)cc1 (stereo not shown) | – | < 5 | – | > 100 | – | –
C[C@H](NC(=O)C(c1cccnc1)N(C(=O)c1ccco1)c1ccc([Si](C)(C)C)cc1)c1ccccc1 (stereo partly shown) [Jun8-75-2] | – | < 3 | – | – | 2.9 | moderate to high cellular cytotoxicity
O=C(NC1CCCC1)C(c1cccnc1)N(C(=O)c1ccco1)c1ccc(-c2ccccc2)cc1 (stereo not shown) | – | < 5 | – | > 100 | – | –
C[C@H](NC(=O)C(c1cccnc1)N(C(=O)c1ccco1)c1ccc(C2CCCCC2)cc1)c1ccccc1 (stereo partly shown) [Jun8-66-1] | – | < 3 | – | – | – | moderate to high cellular cytotoxicity
CC(C)(C)NC(=O)C(c1cncnc1)N(C(=O)c1ccco1)c1ccc(C(C)(C)C)cc1 (stereo not shown) | – | > 20 | – | – | – | –
CC(C)(C)c1ccc(N(C(=O)c2ccco2)C(C(=O)NC2CCCCC2)c2cccnc2)cc1 (stereo not shown) | improved enzymatic inhibition | < 5 | – | – | – | moderate to high cellular cytotoxicity
O=C(NC1CCCCC1)C(c1cccnc1)N(C(=O)c1ccco1)c1ccc(-c2ccccc2)cc1 (stereo not shown) [Jun9-3-3] | – | < 5 | – | – | – | moderate to high cellular cytotoxicity
CC(C)(C)c1ccc(N(C(=O)c2ccco2)C(C(=O)NC2CC2)c2cccnc2)cc1 (stereo not shown) [Jun8-58-2] | improved enzymatic inhibition | < 5 | – | – | – | moderate to high cellular cytotoxicity
C[C@H](NC(=O)C(c1cccnc1)N(C(=O)c1ccco1)c1ccc(-c2ccccn2)cc1)c1ccccc1 (stereo partly shown) [Jun9-6-4] | – | < 3 | > 100 | – | – | –
C[C@H](NC(=O)C(c1cccnc1)N(C(=O)c1ccco1)c1ccc(-c2ccco2)cc1)c1ccccc1 (stereo partly shown) [Jun8-91-5] | – | < 3 | – | – | – | moderate to high cellular cytotoxicity
